Results as given in paper PMC5589098 (PLoS ONE, 2017).

Tested on: C57BL/6J mice
Settings: mouse, in vivo

**Q.** For `NC1=N[C@H](O)[C@H]2[C@H]3O[C@]4(O)O[C@@H]([C@@H](O)[C@@]2(N1)[C@@H]4O)[C@]3(O)CO` [TTX, tetrodotoxin], which side effects is on record?
**A.** caused sedation, and reduced motor coordination
